# Patent US20110135634A1, “METHODS OF INHIBITING INFECTION BY DIVERSE SUBTYPES OF DRUG-RESISTANT HIV-1” (priority 2007, published 2011)
# Protein sequences, listed by entry. Tags and fused reporters are not part of them.
# UniProt P51681, whole entry: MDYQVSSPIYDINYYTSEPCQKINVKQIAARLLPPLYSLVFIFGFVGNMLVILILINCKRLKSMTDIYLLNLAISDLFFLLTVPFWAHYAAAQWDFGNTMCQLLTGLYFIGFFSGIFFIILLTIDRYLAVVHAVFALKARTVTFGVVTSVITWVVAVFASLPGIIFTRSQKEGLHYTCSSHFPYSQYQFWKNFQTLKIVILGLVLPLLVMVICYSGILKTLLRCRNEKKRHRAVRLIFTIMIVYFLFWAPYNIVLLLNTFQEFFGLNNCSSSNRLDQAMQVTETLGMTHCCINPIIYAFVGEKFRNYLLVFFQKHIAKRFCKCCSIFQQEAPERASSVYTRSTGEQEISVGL
# B1: PRO 140: humanized IgG4,κ anti-CCR5 mAb being developed for HIV-1 therapy (antibody, chains of the INN, looked up, V domains shown)
# VH: EVQLVESGGGLVKPGGSLRLSCAASGYTFSNYWIGWVRQAPGKGLEWIGDIYPGGNYIRNNEKFKDKTTLSADTSKNTAYLQMNSLKTEDTAVYYCGSSFGSNYVFAWFTYWGQGTLVTVSS
# VL: DIVMTQSPLSLPVTPGEPASISCRSSQRLLSSYGHTYLHWYLQKPGQSPQLLIYEVSNRFSGVPDRFSGSGSGTDFTLKISRVEAEDVGVYYCSQSTHVPLTFGQGTKVEIK
# Biological target: T1, CCR5 on CEM.NKR-CCR5 cells (Homo sapiens, UniProt P51681)
# T1 construct: host or cells: CEM.NKR-CCR5 (transduced human T cell leukemia line)
# Assay: Competition binding: inhibition of PRO 140-PE binding
# Conditions: based on MFI data; 5 nM PRO 140-PE
# Description: Azide was added to block CCR5 internalization during the assay. Cells were washed in PBSA and incubated with 5nM PRO 140-PE for an additional 30 minutes prior to washing and analysis by flow cytometry using a FACSCalibur instrument (Becton Dickinson). The extent of PRO 140-PE binding was measured in terms of both the mean fluorescence intensity (MFI) and the percent of cells gated for positive staining.
molecule,measurement,value
B1,EC50,2.5 nM
